# Read-outs that look alike come from different tables or passages of the source.
# Key:
# Assay in all cases: SEC
# SEC [1] = target: the molecule itself
# SEC [2] = target: the molecule itself; remark: listed apart in the source
# SEC [3] = target: the molecule itself; remark: listed apart in the source
# SEC [4] = target: the molecule itself; remark: listed apart in the source
Protein,stoichiometry N (SEC [1]),stoichiometry N (SEC [2]),stoichiometry N (SEC [3]),monomer:trimer ratio (SEC [4])
"FP_HM, gp41 […]/SGGRGG/[…] (domain or fragment) not shown",3,3,3,–
"FP_HM_TM, gp41 […]/SGGRGG/[…] (domain or fragment) not shown",3,3,3,~1

# Reference: publication PMC6151270 (Biochemistry, 2018)
